Test results taken from the NIST ThermoML archive (doi:10.1016/j.jct.2018.07.024).
Numbers after ± are expanded uncertainties.

Assay: activity coefficient (dimensionless); xn = mol fraction of the nth substance listed
Settings: 101.33 kPa, Liquid, Chromatography, x1 = 0

SMILES	activity coefficient (318.15 K)	activity coefficient (328.15 K)	activity coefficient (338.15 K)	activity coefficient (348.15 K)	activity coefficient (358.15 K)	activity coefficient (368.15 K)
C1CCCCCC1 [cycloheptane] + CCCCCCCC[N+](CC)(CC)CC.O=S(=O)(F)[N-]S(=O)(=O)F	6.11 ± 0.42	6.05 ± 0.41	6 ± 0.41	5.93 ± 0.4	5.87 ± 0.4	5.81 ± 0.4
CCCO [propan-1-ol] + CCCCCCCC[N+](CC)(CC)CC.O=S(=O)(F)[N-]S(=O)(=O)F	2.19 ± 0.15	2.07 ± 0.14	1.97 ± 0.13	1.88 ± 0.13	1.8 ± 0.12	1.72 ± 0.12
C=CCCC [1-pentene] + CCCC[N+]1(C)CCCC1.O=S(=O)(F)[N-]S(=O)(=O)F	8.98 ± 0.61	9.12 ± 0.62	9.26 ± 0.63	9.39 ± 0.64	9.51 ± 0.65	9.65 ± 0.66
CCCCCCC [heptane] + CCCC[N+]1(C)CCCC1.O=S(=O)(F)[N-]S(=O)(=O)F	40.5 ± 2.8	38.9 ± 2.7	37.4 ± 2.6	36 ± 2.5	34.8 ± 2.4	33.9 ± 2.3
COC(C)=O [methyl ethanoate] + CCCC[N+]1(C)CCCC1.O=S(=O)(F)[N-]S(=O)(=O)F	0.967 ± 0.061	1.03 ± 0.06	1.09 ± 0.07	1.15 ± 0.07	1.21 ± 0.08	1.27 ± 0.08
COC(C)=O [methyl ethanoate] + CCCCCCCC[N+](CC)(CC)CC.O=S(=O)(F)[N-]S(=O)(=O)F	0.753 ± 0.05	0.792 ± 0.052	0.832 ± 0.054	0.871 ± 0.056	0.909 ± 0.058	0.949 ± 0.06
C1CCCCC1 [cyclohexane] + CCCCCCCC[N+](CC)(CC)CC.O=S(=O)(F)[N-]S(=O)(=O)F	5.28 ± 0.36	5.23 ± 0.36	5.16 ± 0.35	5.1 ± 0.35	5.07 ± 0.35	5.01 ± 0.34
CCCCCCCC [octane] + CCCCCCCC[N+](CC)(CC)CC.O=S(=O)(F)[N-]S(=O)(=O)F	14.7 ± 1	14.4 ± 1	14.1 ± 1	13.9 ± 1	13.7 ± 0.9	13.5 ± 0.9
CC#N [acetonitrile] + CCCC[N+]1(C)CCCC1.O=S(=O)(F)[N-]S(=O)(=O)F	0.579 ± 0.041	0.601 ± 0.042	0.623 ± 0.043	0.645 ± 0.044	0.667 ± 0.045	0.688 ± 0.046
C#CCCCCC [1-heptyne] + CCCC[N+]1(C)CCCC1.O=S(=O)(F)[N-]S(=O)(=O)F	5.17 ± 0.35	5.4 ± 0.37	5.63 ± 0.38	5.86 ± 0.4	6.08 ± 0.41	6.31 ± 0.43
Cc1ccc(C)cc1 [1,4-dimethylbenzene] + CCCC[N+]1(C)CCCC1.O=S(=O)(F)[N-]S(=O)(=O)F	2.07 ± 0.14	2.22 ± 0.15	2.36 ± 0.16	2.5 ± 0.17	2.64 ± 0.18	2.77 ± 0.19
CC1CCCCC1 [methylcyclohexane] + CCCCCCCC[N+](CC)(CC)CC.O=S(=O)(F)[N-]S(=O)(=O)F	6.6 ± 0.45	6.53 ± 0.45	6.46 ± 0.44	6.41 ± 0.44	6.35 ± 0.43	6.3 ± 0.43
CCC(C)O (centres undefined) [butan-2-ol] + CCCCCCCC[N+](CC)(CC)CC.O=S(=O)(F)[N-]S(=O)(=O)F	2.16 ± 0.15	2.05 ± 0.14	1.96 ± 0.13	1.88 ± 0.13	1.81 ± 0.12	1.74 ± 0.12
C#CCCCCCC [1-octyne] + CCCC[N+]1(C)CCCC1.O=S(=O)(F)[N-]S(=O)(=O)F	7.35 ± 0.5	7.61 ± 0.52	7.86 ± 0.54	8.11 ± 0.55	8.35 ± 0.57	8.6 ± 0.59
C1CCCCCC1 [cycloheptane] + CCCC[N+]1(C)CCCC1.O=S(=O)(F)[N-]S(=O)(=O)F	17.3 ± 1.2	16.8 ± 1.1	16.3 ± 1.1	16 ± 1.1	15.6 ± 1.1	15.3 ± 1
CCOC(C)(C)C [2-ethoxy-2-methylpropane] + CCCCCCCC[N+](CC)(CC)CC.O=S(=O)(F)[N-]S(=O)(=O)F	4.18 ± 0.28	4.3 ± 0.29	4.43 ± 0.3	4.55 ± 0.31	4.67 ± 0.32	4.79 ± 0.33
CC(C)c1ccccc1 [isopropylbenzene] + CCCCCCCC[N+](CC)(CC)CC.O=S(=O)(F)[N-]S(=O)(=O)F	1.63 ± 0.11	1.71 ± 0.11	1.8 ± 0.12	1.89 ± 0.13	1.98 ± 0.13	2.07 ± 0.14
c1ccccc1 [benzene] + CCCC[N+]1(C)CCCC1.O=S(=O)(F)[N-]S(=O)(=O)F	1.07 ± 0.07	1.14 ± 0.07	1.21 ± 0.08	1.28 ± 0.08	1.35 ± 0.09	1.42 ± 0.09
CCC[N+](=O)[O-] [1-nitropropane] + CCCCCCCC[N+](CC)(CC)CC.O=S(=O)(F)[N-]S(=O)(=O)F	0.629 ± 0.043	0.657 ± 0.045	0.681 ± 0.046	0.708 ± 0.047	0.733 ± 0.049	0.758 ± 0.05
O [water] + CCCC[N+]1(C)CCCC1.O=S(=O)(F)[N-]S(=O)(=O)F	3.84 ± 0.26	3.51 ± 0.24	3.23 ± 0.22	2.99 ± 0.2	2.78 ± 0.19	2.59 ± 0.18
CC(C)=O [acetone] + CCCCCCCC[N+](CC)(CC)CC.O=S(=O)(F)[N-]S(=O)(=O)F	0.493 ± 0.038	0.521 ± 0.039	0.55 ± 0.04	0.578 ± 0.041	0.604 ± 0.042	0.631 ± 0.044
c1ccsc1 [thiophene] + CCCCCCCC[N+](CC)(CC)CC.O=S(=O)(F)[N-]S(=O)(=O)F	0.545 ± 0.04	0.583 ± 0.041	0.623 ± 0.043	0.661 ± 0.045	0.701 ± 0.047	0.741 ± 0.049
Cc1cccc(C)c1 [1,3-dimethylbenzene] + CCCCCCCC[N+](CC)(CC)CC.O=S(=O)(F)[N-]S(=O)(=O)F	1.11 ± 0.07	1.19 ± 0.08	1.27 ± 0.08	1.35 ± 0.09	1.43 ± 0.09	1.52 ± 0.1
CCC[N+](=O)[O-] [1-nitropropane] + CCCC[N+]1(C)CCCC1.O=S(=O)(F)[N-]S(=O)(=O)F	0.834 ± 0.054	0.873 ± 0.056	0.913 ± 0.058	0.952 ± 0.06	0.991 ± 0.062	1.03 ± 0.06
